Target: α1-adrenoceptor of the rat vas deferens (rat), P18090
Assay: cell-based or functional assay

## FNWRCCLIPACRRNHKKFC (modifications not checked) [ρ-TIA]
  maximum response to noradrenaline at 3 µM ρ-TIA, as % of the control response (% of control response): 82
  maximum response to noradrenaline at 10 µM ρ-TIA, as % of the control response (% of control response): 42

Reference: patent publication US6849601B1 (priority 1998, dated 2005)
